Experimental findings from patent US20240092860A1 are described below.

In this test the target is rhesus CD38 on BLCL-C162 cells (rhesus) (UniProt Q5VAN0). In words: cell-based or functional assay.

Where only a bound is given, the exact number is not on record here.

In turn, “Shiga toxin effector polypeptide only control” yielded a Cytotoxicity CD50, rhesus BLCL-C162 cells greater than 2000 ng/mL.
